Reference: patent US20160250213A1, “FORMULATIONS OF AZAINDOLE COMPOUNDS” (priority 2013, published 2016)

System: influenza A virus
Assay type: in vivo, mice
Conditions: 1, 3 or 10 mg/kg BID

O=C(O)[C@H]1C2CCC(CC2)C1Nc1nc(-c2c[nH]c3ncc(F)cc23)ncc1F (stereo partly shown) [Compound (1)]
dosing initiation post infection up to which complete protection from death is provided: up to 72 h
